Measured values from several laboratories, pooled; numbers as filed in NIAID ChemDB.

All rows: enzyme or target tests; organism: Hepatitis C virus; protein: NS3/NS4A protease

Conditions beyond the fields shown may differ between rows.

| SMILES | strain | measure | result |
|---|---|---|---|
| C=C[C@H]1C[C@@]1(NC(=O)[C@@H]1C[C@@H](Oc2cc(-c3ccccc3)nc3cc(OC)ccc23)CN1C(=O)[C@@H](NC(=O)OC(C)(C)C)C(C)(C)C)C(=O)NS(=O)(=O)C1(CCOC)CC1 | BMS | IC50 | <0.05 µM |
| C=CC1CC1(NC(=O)[C@@H]1C[C@@H](OC(=O)Nc2ccccc2-c2ccccc2)CN1C(=O)[C@@H](NC(=O)OC(C)(C)C)C(C)(C)C)C(=O)NS(=O)(=O)C1CC1 | BMS/H77C/J416S | IC50 | <0.1 µM |
| C=C[C@@H]1C[C@]1(NC(=O)[C@@H]1C[C@@H](Oc2cc(-c3ccccc3)nc3cc(OC)ccc23)CN1C(=O)[C@@H](NC(=O)CC(C)(C)C)C(C)(C)C)C(=O)NS(=O)(=O)C1CC1 | BMS | IC50 | <0.05 µM |
| C=CC1CC1(NC(=O)[C@@H]1C[C@@H](OC(=O)Nc2ccccc2Cl)CN1C(=O)[C@@H](NC(=O)OC(C)(C)C)C(C)(C)C)C(=O)NS(=O)(=O)C1CC1 | BMS/H77C/J416S | IC50 | <0.1 µM |
| C=CC1CC1(NC(=O)[C@@H]1C[C@@H](Oc2cc(-c3ccccc3)nc3cc(OC)ccc23)CN1C(=O)[C@H](CC(C)C)NC(=O)OC(C)(C)C)C(=O)NS(=O)(=O)C1CC1 | BMS | IC50 | <0.05 µM |
| C=CC1CC1(NC(=O)[C@@H]1C[C@@H](OC(=O)N[C@H]2C[C@@H]2c2ccccc2)CN1C(=O)[C@@H](NC(=O)OC(C)(C)C)C(C)(C)C)C(=O)NS(=O)(=O)C1CC1 | BMS/H77C/J416S | IC50 | <0.1 µM |
| C=C[C@H]1C[C@@]1(NC(=O)[C@@H]1C[C@@H](Oc2cc(-c3ccccc3)nc3cc(OC)ccc23)CN1C(=O)[C@@H](NC(=O)OC1CCCC1)C(C)(C)C)C(=O)NS(=O)(=O)C1(Cc2ccccc2)CC1 | BMS | IC50 | <0.05 µM |
| C=CC1CC1(NC(=O)[C@@H]1C[C@@H](OC(=O)Nc2ccccc2-c2ncn[nH]2)CN1C(=O)[C@@H](NC(=O)OC(C)(C)C)C(C)(C)C)C(=O)NS(=O)(=O)C1CC1 | BMS/H77C/J416S | IC50 | <0.1 µM |
| COc1ccc2c(O[C@@H]3C[C@@H](C(=O)N[C@@]4(C(=O)NS(=O)(=O)C5(CC6CC6)CC5)CC4C4CC4)N(C(=O)[C@@H](NC(=O)OC(C)(C)C)C(C)(C)C)C3)cc(-c3ccccc3)nc2c1 | BMS | IC50 | <0.05 µM |
| CC[C@@H]1C[C@]1(NC(=O)[C@@H]1C[C@@H](Oc2cc(-c3ccccc3)nc3cc(OC)ccc23)CN1C(=O)[C@@H](NC(=O)OC1CCCC1)C(C)C)C(=O)NS(=O)(=O)C1CC1 | BMS | IC50 | <0.05 µM |
| C=C[C@H]1C[C@@]1(NC(=O)[C@@H]1C[C@@H](Oc2cc(-c3ccccc3)nc3cc(OC)ccc23)CN1C(=O)[C@@H](NC(=O)OC(C)(C)C)C(C)(C)C)C(=O)NS(=O)(=O)C1(Cc2cccnc2)CC1 | BMS | IC50 | <0.05 µM |
| C=C[C@@H]1C[C@]1(NC(=O)[C@@H]1C[C@@H](Oc2cc(-c3ccccc3)nc3cc(OC)ccc23)CN1C(=O)[C@@H](NC(=O)OC(C)(C)C)C(C)C)C(=O)NS(=O)(=O)C1CCC1 | BMS | IC50 | <0.05 µM |
| C=C[C@H]1C[C@@]1(NC(=O)[C@@H]1C[C@@H](Oc2cc(-c3ccccc3)nc3cc(OC)ccc23)CN1C(=O)[C@@H](NC(=O)OC(C)(C)C)C(C)(C)C)C(=O)NS(=O)(=O)C1(CC2CCC2)CC1 | BMS | IC50 | <0.05 µM |
| C=CC1CC1(NC(=O)[C@@H]1C[C@@H](OC(=O)Nc2cc(Cl)cc(Cl)c2)CN1C(=O)[C@@H](NC(=O)OC(C)(C)C)C(C)(C)C)C(=O)NS(=O)(=O)C1CC1 | BMS/H77C/J416S | IC50 | <0.1 µM |
| C=C[C@H]1C[C@@]1(NC(=O)[C@@H]1C[C@@H](Oc2cc(C3CC3)nc3cc(OC)ccc23)CN1C(=O)[C@@H](NC(=O)OC(C)(C)C)C(C)(C)C)C(=O)NS(=O)(=O)C1(CC2CC2)CC1 | BMS | IC50 | <0.05 µM |
| C#CCC[C@H](NC(=O)[C@@H]1[C@@H]2[C@H](CN1C(=O)[C@@H](NC(=O)[C@@H](NC(=O)c1cnccn1)C1(C)CCCCC1)C1(C)CCCCC1)C2(C)C)C(=O)C(=O)NCC=C | - | Ki | 0.005 µM |
| C=CC1CC1(NC(=O)[C@@H]1C[C@@H](OC(=O)Nc2ccccc2Oc2ccccc2)CN1C(=O)[C@@H](NC(=O)OC(C)(C)C)C(C)(C)C)C(=O)NS(=O)(=O)C1CC1 | BMS/H77C/J416S | IC50 | <0.1 µM |
| C=C[C@@H]1C[C@]1(NC(=O)[C@@H]1C[C@@H](Oc2cc(-c3ccccc3)nc3cc(OC)ccc23)CN1C(=O)[C@@H](NC(=O)OCOC(C)=O)C(C)(C)C)C(=O)NS(=O)(=O)C1CC1 | BMS | IC50 | <0.05 µM |
| C=C[C@H]1C[C@@]1(NC(=O)[C@@H]1C[C@@H](Oc2cc(-c3ccccc3)nc3cc(OC)ccc23)CN1C(=O)[C@@H](NC(=O)OC(C)(C)C)C(C)(C)C)C(=O)NS(=O)(=O)C1(CCOCc2ccccc2)CC1 | BMS | IC50 | <0.05 µM |
| C=CC1CC1(NC(=O)[C@@H]1C[C@@H](OC(=O)Nc2ccccc2CCC)CN1C(=O)[C@@H](NC(=O)OC(C)(C)C)C(C)(C)C)C(=O)NS(=O)(=O)C1CC1 | BMS/H77C/J416S | IC50 | <0.1 µM |
| CCC(C=O)NC(=O)[C@@H]1C[C@@H](Oc2cccc3ccccc23)CN1C(=O)[C@H](NC(=O)[C@H](NC(=O)c1cnccn1)C(C)C)C(C)C | - | Ki | 4.1 µM |

3 of the rows above, restated:

{"SMILES": "C=CC1CC1(NC(=O)[C@@H]1C[C@@H](OC(=O)Nc2ccccc2-c2ncn[nH]2)CN1C(=O)[C@@H](NC(=O)OC(C)(C)C)C(C)(C)C)C(=O)NS(=O)(=O)C1CC1", "strain": "BMS/H77C/J416S", "measure": "IC50", "result": "<0.1 µM"}
{"SMILES": "C=CC1CC1(NC(=O)[C@@H]1C[C@@H](OC(=O)N[C@H]2C[C@@H]2c2ccccc2)CN1C(=O)[C@@H](NC(=O)OC(C)(C)C)C(C)(C)C)C(=O)NS(=O)(=O)C1CC1", "strain": "BMS/H77C/J416S", "measure": "IC50", "result": "<0.1 µM"}
{"SMILES": "C=CC1CC1(NC(=O)[C@@H]1C[C@@H](OC(=O)Nc2ccccc2Cl)CN1C(=O)[C@@H](NC(=O)OC(C)(C)C)C(C)(C)C)C(=O)NS(=O)(=O)C1CC1", "strain": "BMS/H77C/J416S", "measure": "IC50", "result": "<0.1 µM"}

An empty or dashed field is not shown. ICn: concentration for n% inhibition.